According to ChEMBL document CHEMBL5226308, “Amide-Amine Replacement in Indole-2-carboxamides Yields Potent Mycobactericidal Agents with Improved Water Solubility” (ACS Med Chem Lett, 2021):
Calls of active or inactive are those of the source.

Experiments:
Conditions in all cases: time 5.0 day
[1] = system: Mycobacterium tuberculosis variant bovis; test: Antimycobacterial activity against Mycobacterium bovis BCG B47-2 harboring V681I mutant assessed as inhibition of bacterial growth incubated for 5 days by broth dilution method
[2] = system: Mycobacterium tuberculosis variant bovis; test: Antimycobacterial activity against Mycobacterium bovis BCG B33-2 harboring F255L mutant assessed as inhibition of bacterial growth incubated for 5 days by broth dilution method
[3] = system: Mycobacterium tuberculosis variant bovis; test: Antimycobacterial activity against Mycobacterium bovis BCG B47-4 harboring F644L mutant assessed as inhibition of bacterial growth incubated for 5 days by broth dilution method

Measured: Activity

O=C(NC1CCCCCCC1)c1cc2ccccc2[se]1
inactive: all assays above

O=C(NC1CCCCCCC1)c1cc2ccccc2s1
inactive: all assays above

c1ccc2[se]c(CNC3CCCCCCC3)cc2c1
inactive: all assays above
